Laboratory results reported in patent publication US20240109955A1 (published 2024).
Read-outs that look alike come from different tables or passages of the source.

B1: MX1078 (other)
chain 1: DTVMTQSPLSLPVTPGEPASISCRSSQSLLNSNGYNYLDWYVQKPGQSPQLLIYLGSNRASGVPDRFSGSGSGTDFTLKISRVEAEDVGVYYCMQPLQTPLFTFGPGTKVEIKGGSSGEIVLTQSPGTLSLSPGETATLSCRASQSFSSDLAWYQQKPGQAPRLLIYGASSRATGIPDRFSGSGSGTDFTLTISRLEPADFAVYYCQQYGSSPPVTFGGGTKVEIKGGGGSGGSGSGGGGSASGSGEVQLVESGGGLIQPGGSLRLSCAASGVIVSYNYMNWVRQAPGKGLEWVSVIYSGGSTFYADSVRGRFTISRDNSKNTLYLQMNSLRAEDTAVYYCARDLGPAGAFDIWGLGTMVTVSSGGSSGQVTLRESGPALVKPTQTLTLTCTFSGFSLSTRGVCVSWIRQPPGKALEWLAFIDWDDDKYYNTSLKTRLTISKDTSKNQVVLTMTNVHPVDTATYYCARISSHHGSSWCTTFDYWGQGALVTVSAASGGSGDKTHTCPPCPAPELLGGPSVFLFPPKPKDTLMISRTPEVTCVVVDVSHEDPEVKFNWYVDGVEVHNAKTKPREEQYNSYVVSVLTVLHQDWLNGKEYKCKVSNKALPAPIEKTISKAKGQPREPQVYTLPPCRDELTKNQVSLWCLVKGFYPSDIAVEWESNGQPENNYKTTPPVLDSDGSFFKKLTVDKSRWQQGNVFSCSVLHEALHSHYTQKSLSLSPG
chain 2: DTVMTQSPLSLPVTPGEPASISCRSSQSLLNSNGYNYLDWYVQKPGQSPQLLIYLGSNRASGVPDRFSGSGSGTDFTLKISRVEAEDVGVYYCMQPLQTPLFTFGPGTKVEIKGGSSGQTVVTQEPSFSVSPGGTVTLTCGLSSGSVSTAYFPSWYQQTPGQAPRTLIYGTNTRSSGVPDRFSGSILGNKAALTITGAQADDESDYYCVLYMGRGIVVFGGGTKLTVLGGGGSGGSGSGGGGSASGSGQVQLVESGGGVVQPGRSLRLSCAASGFTLSSYGMHWVRQAPGKGLEWVAVISYDGSNKYYVDSVKGRFTISRDNSKNTLYLQMNSLRAEDTAVYYCRWAYWELLPDYYYGMDVWGQGTTVTVSSGGSSGQVTLRESGPALVKPTQTLTLTCTFSGFSLSTRGVCVSWIRQPPGKALEWLAFIDWDDDKYYNTSLKTRLTISKDTSKNQVVLTMTNVHPVDTATYYCARISSHHGSSWCTTFDYWGQGALVTVSAASGGSGDKTHTCPPCPAPELLGGPSVFLFPPKPKDTLMISRTPEVTCVVVDVSHEDPEVKFNWYVDGVEVHNAKTKPREEQYNSYVVSVLTVLHQDWLNGKEYKCKVSNKALPAPIEKTISKAKGQPREPQVCTLPPSRDELTKNQVSLSCAVKGFYPSDIAVEWESNGQPENNYKTTPPVLDSDGSFFLVSKLTVDKSRWQQGNVFSCSVLHEALHSHYTQKSLSLSPG
B2: MX1086 (antibody)
chain 1: EIVMTQSPAILSVSPGERATLSCRASQSVAINLAWYQQKPGQAPRLLIYAASSRATGIPGRFSGSGSETNFTLTISSLQSGDFAVYYCQQYITWPPSYTFGQGTKLEIKGGSSGDTVMTQSPLSLPVTPGEPASISCRSSQSLLNSNGYNYLDWYVQKPGQSPQLLIYLGSNRASGVPDRFSGSGSGTDFTLKISRVEAEDVGVYYCMQPLQTPLFTFGPGTKVEIKGGGGSGGSGSGGGGSASGSGQVTLRESGPALVKPTQTLTLTCTFSGFSLSTRGVCVSWIRQPPGKALEWLAFIDWDDDKYYNTSLKTRLTISKDTSKNQVVLTMTNVHPVDTATYYCARISSHHGSSWCTTFDYWGQGALVTVSAGGSSGEVQLVESGGALIQPGGSLRLSCAASGIIVSANYMSWVRQAPGKGLEWVSVIYSGGSTFYADSVKGRFTISRDNSKNTLYLEMNSLRAEDTAVYYCARDAPILGVSDWGQGTLVTVSSASGGSGDKTHTCPPCPAPELLGGPSVFLFPPKPKDTLMISRTPEVTCVVVDVSHEDPEVKFNWYVDGVEVHNAKTKPREEQYNSYVVSVLTVLHQDWLNGKEYKCKVSNKALPAPIEKTISKAKGQPREPQVCTLPPSRDELTKNQVSLSCAVKGFYPSDIAVEWESNGQPENNYKTTPPVLDSDGSFFLVSKLTVDKSRWQQGNVFSCSVLHEALHSHYTQKSLSLSPG
chain 2: QTVVTQEPSFSVSPGGTVTLTCGLSSGSVSTAYFPSWYQQTPGQAPRTLIYGTNTRSSGVPDRFSGSILGNKAALTITGAQADDESDYYCVLYMGRGIVVFGGGTKLTVLGGSSGEIVLTQSPGTLSLSPGETATLSCRASQSFSSDLAWYQQKPGQAPRLLIYGASSRATGIPDRFSGSGSGTDFTLTISRLEPADFAVYYCQQYGSSPPVTFGGGTKVEIKGGGGSGGSGSGGGGSASGSGEVQLVESGGGLIQPGGSLRLSCAASGVIVSYNYMNWVRQAPGKGLEWVSVIYSGGSTFYADSVRGRFTISRDNSKNTLYLQMNSLRAEDTAVYYCARDLGPAGAFDIWGLGTMVTVSSGGSSGQVQLVESGGGVVQPGRSLRLSCAASGFTLSSYGMHWVRQAPGKGLEWVAVISYDGSNKYYVDSVKGRFTISRDNSKNTLYLQMNSLRAEDTAVYYCRWAYWELLPDYYYGMDVWGQGTTVTVSSASGGSGDKTHTCPPCPAPELLGGPSVFLFPPKPKDTLMISRTPEVTCVVVDVSHEDPEVKFNWYVDGVEVHNAKTKPREEQYNSYVVSVLTVLHQDWLNGKEYKCKVSNKALPAPIEKTISKAKGQPREPQVYTLPPCRDELTKNQVSLWCLVKGFYPSDIAVEWESNGQPENNYKTTPPVLDSDGSFFKKLTVDKSRWQQGNVFSCSVLHEALHSHYTQKSLSLSPG
B3: MX1087 (antibody)
chain 1: QTVVTQEPSFSVSPGGTVTLTCGLSSGSVSTAYFPSWYQQTPGQAPRTLIYGTNTRSSGVPDRFSGSILGNKAALTITGAQADDESDYYCVLYMGRGIVVFGGGTKLTVLGGSSGEIVMTQSPAILSVSPGERATLSCRASQSVAINLAWYQQKPGQAPRLLIYAASSRATGIPGRFSGSGSETNFTLTISSLQSGDFAVYYCQQYITWPPSYTFGQGTKLEIKGGGGSGGSGSGGGGSASGSGEVQLVESGGALIQPGGSLRLSCAASGIIVSANYMSWVRQAPGKGLEWVSVIYSGGSTFYADSVKGRFTISRDNSKNTLYLEMNSLRAEDTAVYYCARDAPILGVSDWGQGTLVTVSSGGSSGQVQLVESGGGVVQPGRSLRLSCAASGFTLSSYGMHWVRQAPGKGLEWVAVISYDGSNKYYVDSVKGRFTISRDNSKNTLYLQMNSLRAEDTAVYYCRWAYWELLPDYYYGMDVWGQGTTVTVSSASGGSGDKTHTCPPCPAPELLGGPSVFLFPPKPKDTLMISRTPEVTCVVVDVSHEDPEVKFNWYVDGVEVHNAKTKPREEQYNSYVVSVLTVLHQDWLNGKEYKCKVSNKALPAPIEKTISKAKGQPREPQVYTLPPCRDELTKNQVSLWCLVKGFYPSDIAVEWESNGQPENNYKTTPPVLDSDGSFFKKLTVDKSRWQQGNVFSCSVLHEALHSHYTQKSLSLSPG
chain 2: EIVLTQSPGTLSLSPGETATLSCRASQSFSSDLAWYQQKPGQAPRLLIYGASSRATGIPDRFSGSGSGTDFTLTISRLEPADFAVYYCQQYGSSPPVTFGGGTKVEIKGGSSGDTVMTQSPLSLPVTPGEPASISCRSSQSLLNSNGYNYLDWYVQKPGQSPQLLIYLGSNRASGVPDRFSGSGSGTDFTLKISRVEAEDVGVYYCMQPLQTPLFTFGPGTKVEIKGGGGSGGSGSGGGGSASGSGQVTLRESGPALVKPTQTLTLTCTFSGFSLSTRGVCVSWIRQPPGKALEWLAFIDWDDDKYYNTSLKTRLTISKDTSKNQVVLTMTNVHPVDTATYYCARISSHHGSSWCTTFDYWGQGALVTVSAGGSSGEVQLVESGGGLIQPGGSLRLSCAASGVIVSYNYMNWVRQAPGKGLEWVSVIYSGGSTFYADSVRGRFTISRDNSKNTLYLQMNSLRAEDTAVYYCARDLGPAGAFDIWGLGTMVTVSSASGGSGDKTHTCPPCPAPELLGGPSVFLFPPKPKDTLMISRTPEVTCVVVDVSHEDPEVKFNWYVDGVEVHNAKTKPREEQYNSYVVSVLTVLHQDWLNGKEYKCKVSNKALPAPIEKTISKAKGQPREPQVCTLPPSRDELTKNQVSLSCAVKGFYPSDIAVEWESNGQPENNYKTTPPVLDSDGSFFLVSKLTVDKSRWQQGNVFSCSVLHEALHSHYTQKSLSLSPG

Experiments:
Assay in all cases: cell-based or functional assay
[1] = biological target: SARS-CoV-2 spike protein, original Wuhan strain (WA1) (SARS-CoV-2, UniProt P0DTC2 14-1273)
[2] = biological target: SARS-CoV-2 spike protein, D614G spike protein mutant (SARS-CoV-2, UniProt P0DTC2 14-1273)
[3] = biological target: SARS-CoV-2 spike protein, original Wuhan strain (WA1) (SARS-CoV-2, UniProt P0DTC2 14-1273); remark: listed apart in the source

Binder	IC50, pseudovirus neutralization [1] [µg/mL]	IC80, pseudovirus neutralization [1] [µg/mL]	IC50, pseudovirus neutralization [2] [µg/mL]	IC80, pseudovirus neutralization [2] [µg/mL]	IC50, pseudovirus neutralization [3] [µg/mL]	IC80, pseudovirus neutralization [3] [µg/mL]
B1	0.0151	0.0464	–	–	–	–
B2	–	–	0.0185	0.0442	0.00509	0.0281
B3	–	–	0.0235	0.0518	0.0205	0.0727
